Reference: patent publication US20220089698A1, “ANTIBODIES THAT TARGET HIV GP120 AND METHODS OF USE” (published 2022)

How the values were obtained:
Test in all cases: cell-based or functional assay
[1] = target: HIV-1 envelope glycoprotein (Env, gp120) of virus REJO (HIV-1)
[2] = target: HIV-1 envelope glycoprotein (Env, gp120) of virus 7141 (HIV-1)
[3] = target: HIV-1 envelope glycoprotein (Env, gp120) of virus 7576 (HIV-1)
[4] = target: HIV-1 envelope glycoprotein (Env, gp120) of virus 1413 (HIV-1)
[5] = target: HIV-1 envelope glycoprotein (Env, gp120) of virus 92US712 (HIV-1)
[6] = target: HIV-1 envelope glycoprotein (Env, gp120) of virus 8117 (HIV-1)
[7] = target: HIV-1 envelope glycoprotein (Env, gp120) of virus 7467 (HIV-1)
[8] = target: HIV-1 envelope glycoprotein (Env, gp120) of virus 8106 (HIV-1)
[9] = target: HIV-1 envelope glycoprotein (Env, gp120) of virus VS030 (HIV-1)
[10] = target: HIV-1 envelope glycoprotein (Env, gp120) of virus 8320 (HIV-1)
[11] = target: HIV-1 envelope glycoprotein (Env, gp120) of virus 92HT593 (HIV-1)
[12] = target: HIV-1 envelope glycoprotein (Env, gp120) of virus 8134 (HIV-1)
[13] = target: HIV-1 envelope glycoprotein (Env, gp120) of virus CHO77 (HIV-1)
[14] = target: HIV-1 envelope glycoprotein (Env, gp120) of virus 8110 (HIV-1)
[15] = target: HIV-1 envelope glycoprotein (Env, gp120) of virus 7051 (HIV-1)
[16] = target: HIV-1 envelope glycoprotein (Env, gp120) of virus 1012 (HIV-1)
[17] = target: HIV-1 envelope glycoprotein (Env, gp120) of virus 7103 (HIV-1)
[18] = target: HIV-1 envelope glycoprotein (Env, gp120) of virus 92US727 (HIV-1)
[19] = target: HIV-1 envelope glycoprotein (Env, gp120) of virus VS026 (HIV-1)
[20] = target: HIV-1 envelope glycoprotein (Env, gp120) of virus THRO (HIV-1)
[21] = target: HIV-1 envelope glycoprotein (Env, gp120) of virus VS044 (HIV-1)
[22] = target: HIV-1 envelope glycoprotein (Env, gp120) of virus 7595 (HIV-1)
[23] = target: HIV-1 envelope glycoprotein (Env, gp120) of virus VS017 (HIV-1)
[24] = target: HIV-1 envelope glycoprotein (Env, gp120) of virus 92US657 (HIV-1)
[25] = target: HIV-1 envelope glycoprotein (Env, gp120) of virus 8176 (HIV-1)
[26] = target: HIV-1 envelope glycoprotein (Env, gp120) of virus 1489 (HIV-1)
[27] = target: HIV-1 envelope glycoprotein (Env, gp120) of virus 8318 (HIV-1)
[28] = target: HIV-1 envelope glycoprotein (Env, gp120) of virus 7015 (HIV-1)
[29] = target: HIV-1 envelope glycoprotein (Env, gp120) of virus VS004 (HIV-1)
[30] = target: HIV-1 envelope glycoprotein (Env, gp120) of virus 7552 (HIV-1)
[31] = target: HIV-1 envelope glycoprotein (Env, gp120) of virus 1003 (HIV-1)
[32] = target: HIV-1 envelope glycoprotein (Env, gp120) of virus VS043 (HIV-1)
[33] = target: HIV-1 envelope glycoprotein (Env, gp120) of virus VS042 (HIV-1)
[34] = target: HIV-1 envelope glycoprotein (Env, gp120) of virus VS049 (HIV-1)
[35] = target: HIV-1 envelope glycoprotein (Env, gp120) of virus VS039 (HIV-1)
[36] = target: HIV-1 envelope glycoprotein (Env, gp120) of virus VS046 (HIV-1)
[37] = target: HIV-1 envelope glycoprotein (Env, gp120) of virus VS001 (HIV-1)
[38] = target: HIV-1 envelope glycoprotein (Env, gp120) of virus 302076 (HIV-1)
[39] = target: HIV-1 envelope glycoprotein (Env, gp120) of virus VS052 (HIV-1)

B1: Antibody 1.1.64-1 (antibody, human IgG1, kappa)
heavy: QVQLLQSGAAVTKPGASVRVSCEASGYNIRDYFIHWWRQAPGQGLQWVGWINPKTGQPNNPRQFQGRVSLTRHASWDFDTFSFYMDLKALRSDDTAVYFCARQRSDYWDFDVWGSGTQVTVSSASTKGPSVFPLAPSSKSTSGGTAALGCLVKDYFPEPVTVSWNSGALTSGVHTFPAVLQSSGLYSLSSVVTVPSSSLGTQTYICNVNHKPSNTKVDKKVEPKSCDKTHTCPPCPAPELLAGPDVFLFPPKPKDTLMISRTPEVTCVVVDVSHEDPEVKFNWYVDGVEVHNAKTKPREEQYNSTYRVVSVLTVLHQDWLNGKEYKCKVSNKALPLPEEKTISKAKGQPREPQVYTLPPSREEMTKNQVSLTCLVKGFYPSDIAVEWESNGQPENNYKTTPPVLDSDGSFFLYSKLTVDKSRWQQGNVFSCSVLHEALHSHYTQKSLSLSPGK
light: not shown
[1]
  Virus Neutralization Potency: 0.02 µg/mL
[2]
  Virus Neutralization Potency: 1.82 µg/mL
[3]
  Virus Neutralization Potency: 0.39 µg/mL
[4]
  Virus Neutralization Potency: 4.22 µg/mL
[5]
  Virus Neutralization Potency: 0.06 µg/mL
[6]
  Virus Neutralization Potency: 1.77 µg/mL
[7]
  Virus Neutralization Potency: 0.06 µg/mL
[8]
  Virus Neutralization Potency: 3.31 µg/mL
[9]
  Virus Neutralization Potency: 2.6 µg/mL
[10]
  Virus Neutralization Potency: 2.89 µg/mL
[11]
  Virus Neutralization Potency: 0.37 µg/mL
[12]
  Virus Neutralization Potency: 0.6 µg/mL
[13]
  Virus Neutralization Potency: 0.04 µg/mL
[14]
  Virus Neutralization Potency: 6.74 µg/mL
[15]
  Virus Neutralization Potency: 2.05 µg/mL
[16]
  Virus Neutralization Potency: 1.41 µg/mL
[17]
  Virus Neutralization Potency: 1.56 µg/mL
[18]
  Virus Neutralization Potency: 1.12 µg/mL
[19]
  Virus Neutralization Potency: 0.17 µg/mL
[20]
  Virus Neutralization Potency: 3.87 µg/mL
[21]
  Virus Neutralization Potency: 0.16 µg/mL
[22]
  Virus Neutralization Potency: 1.71 µg/mL
[23]
  Virus Neutralization Potency: 0.91 µg/mL
[24]
  Virus Neutralization Potency: 0.42 µg/mL
[25]
  Virus Neutralization Potency: 0.66 µg/mL
[26]
  Virus Neutralization Potency: 0.16 µg/mL
[27]
  Virus Neutralization Potency: 0.33 µg/mL
[28]
  Virus Neutralization Potency: 0.65 µg/mL
[29]
  Virus Neutralization Potency: 2.43 µg/mL
[30]
  Virus Neutralization Potency: > 80 µg/mL
[31]
  Virus Neutralization Potency: 2.97 µg/mL
[32]
  Virus Neutralization Potency: 0.85 µg/mL
[33]
  Virus Neutralization Potency: 2.33 µg/mL
[34]
  Virus Neutralization Potency: 32.2 µg/mL
[35]
  Virus Neutralization Potency: 0.09 µg/mL
[36]
  Virus Neutralization Potency: 0.04 µg/mL
[37]
  Virus Neutralization Potency: 0.06 µg/mL
[38]
  Virus Neutralization Potency: 0.08 µg/mL

B2: Antibody 2.4.1-1 (antibody, human IgG1, kappa)
heavy: QVHLSQSGAAVTKPGASVRVSCEASGYKIRDHFIHWWRQAPGQGLQWVGWINPKTGQPNNPRQFQGRVSLTRHASFDFDTFSFYMDLKAVRSDDTAIYFCARQRSDYWDFDVWGSGTQVTVSSASTKGPSVFPLAPSSKSTSGGTAALGCLVKDYFPEPVTVSWNSGALTSGVHTFPAVLQSSGLYSLSSVVTVPSSSLGTQTYICNVNHKPSNTKVDKKVEPKSCDKTHTCPPCPAPELLAGPDVFLFPPKPKDTLMISRTPEVTCVVVDVSHEDPEVKFNWYVDGVEVHNAKTKPREEQYNSTYRVVSVLTVLHQDWLNGKEYKCKVSNKALPLPEEKTISKAKGQPREPQVYTLPPSREEMTKNQVSLTCLVKGFYPSDIAVEWESNGQPENNYKTTPPVLDSDGSFFLYSKLTVDKSRWQQGNVFSCSVLHEALHSHYTQKSLSLSPGK
light: not shown
[39]
  Virus Neutralization Potency: 0.5 µg/mL
[1]
  Virus Neutralization Potency: 0.02 µg/mL
[2]
  Virus Neutralization Potency: 4.82 µg/mL
[3]
  Virus Neutralization Potency: 1.4 µg/mL
[4]
  Virus Neutralization Potency: 5.04 µg/mL
[5]
  Virus Neutralization Potency: 0.07 µg/mL
[6]
  Virus Neutralization Potency: 2.58 µg/mL
[7]
  Virus Neutralization Potency: 0.05 µg/mL
[8]
  Virus Neutralization Potency: 4.25 µg/mL
[9]
  Virus Neutralization Potency: 5.2 µg/mL
[10]
  Virus Neutralization Potency: 6.69 µg/mL
[11]
  Virus Neutralization Potency: 0.37 µg/mL
[12]
  Virus Neutralization Potency: 1.05 µg/mL
[13]
  Virus Neutralization Potency: 0.08 µg/mL
[14]
  Virus Neutralization Potency: 5.14 µg/mL
[15]
  Virus Neutralization Potency: 1.18 µg/mL
[16]
  Virus Neutralization Potency: 3.38 µg/mL
[17]
  Virus Neutralization Potency: 1.31 µg/mL
[18]
  Virus Neutralization Potency: 13.7 µg/mL
[19]
  Virus Neutralization Potency: 0.27 µg/mL
[20]
  Virus Neutralization Potency: 4.17 µg/mL
[21]
  Virus Neutralization Potency: 0.25 µg/mL
[22]
  Virus Neutralization Potency: 5.06 µg/mL
[23]
  Virus Neutralization Potency: 3.91 µg/mL
[24]
  Virus Neutralization Potency: 0.34 µg/mL
[25]
  Virus Neutralization Potency: 0.33 µg/mL
[26]
  Virus Neutralization Potency: 0.16 µg/mL
[27]
  Virus Neutralization Potency: 0.4 µg/mL
[28]
  Virus Neutralization Potency: 0.54 µg/mL
[29]
  Virus Neutralization Potency: 6.08 µg/mL
[30]
  Virus Neutralization Potency: 37 µg/mL
[31]
  Virus Neutralization Potency: 3.62 µg/mL
[32]
  Virus Neutralization Potency: 1.16 µg/mL
[33]
  Virus Neutralization Potency: 2 µg/mL
[34]
  Virus Neutralization Potency: > 100 µg/mL
[35]
  Virus Neutralization Potency: 0.11 µg/mL
[36]
  Virus Neutralization Potency: 0.05 µg/mL
[37]
  Virus Neutralization Potency: 0.18 µg/mL
[38]
  Virus Neutralization Potency: 0.13 µg/mL

B3: Antibody 2.2.1-1 (antibody, human IgG1, kappa)
heavy: QVHLSQSGAAVTKPGASVRVSCEASGYKIRDHFIHWWRQAPGQGLQWVGWINPKTGQPNNPRQFQGRVSLTRHASWDFDTFSFYMDLKAVRSDDTAIYFCARQRSDYWDFDVWGSGTQVTVSSASTKGPSVFPLAPSSKSTSGGTAALGCLVKDYFPEPVTVSWNSGALTSGVHTFPAVLQSSGLYSLSSVVTVPSSSLGTQTYICNVNHKPSNTKVDKKVEPKSCDKTHTCPPCPAPELLAGPDVFLFPPKPKDTLMISRTPEVTCVVVDVSHEDPEVKFNWYVDGVEVHNAKTKPREEQYNSTYRVVSVLTVLHQDWLNGKEYKCKVSNKALPLPEEKTISKAKGQPREPQVYTLPPSREEMTKNQVSLTCLVKGFYPSDIAVEWESNGQPENNYKTTPPVLDSDGSFFLYSKLTVDKSRWQQGNVFSCSVLHEALHSHYTQKSLSLSPGK
light: not shown
[39]
  Virus Neutralization Potency: 0.24 µg/mL
[1]
  Virus Neutralization Potency: 0.01 µg/mL
[2]
  Virus Neutralization Potency: 3.93 µg/mL
[3]
  Virus Neutralization Potency: 0.7 µg/mL
[4]
  Virus Neutralization Potency: 4.13 µg/mL
[5]
  Virus Neutralization Potency: 0.05 µg/mL
[6]
  Virus Neutralization Potency: 0.94 µg/mL
[7]
  Virus Neutralization Potency: 0.03 µg/mL
[8]
  Virus Neutralization Potency: 2.46 µg/mL
[9]
  Virus Neutralization Potency: 2.51 µg/mL
[10]
  Virus Neutralization Potency: 3.88 µg/mL
[11]
  Virus Neutralization Potency: 0.17 µg/mL
[12]
  Virus Neutralization Potency: 1.52 µg/mL
[13]
  Virus Neutralization Potency: 0.02 µg/mL
[14]
  Virus Neutralization Potency: 3.62 µg/mL
[15]
  Virus Neutralization Potency: 0.97 µg/mL
[16]
  Virus Neutralization Potency: 3.7 µg/mL
[17]
  Virus Neutralization Potency: 1.72 µg/mL
[18]
  Virus Neutralization Potency: 4.84 µg/mL
[19]
  Virus Neutralization Potency: 0.13 µg/mL
[20]
  Virus Neutralization Potency: 2.17 µg/mL
[21]
  Virus Neutralization Potency: 0.13 µg/mL
[22]
  Virus Neutralization Potency: 9.72 µg/mL
[23]
  Virus Neutralization Potency: 0.84 µg/mL
[24]
  Virus Neutralization Potency: 0.25 µg/mL
[25]
  Virus Neutralization Potency: 0.3 µg/mL
[26]
  Virus Neutralization Potency: 0.26 µg/mL
[27]
  Virus Neutralization Potency: 0.36 µg/mL
[28]
  Virus Neutralization Potency: 0.47 µg/mL
[29]
  Virus Neutralization Potency: 2.84 µg/mL
[30]
  Virus Neutralization Potency: 39.6 µg/mL
[31]
  Virus Neutralization Potency: 1.61 µg/mL
[32]
  Virus Neutralization Potency: 1.01 µg/mL
[33]
  Virus Neutralization Potency: 0.89 µg/mL
[34]
  Virus Neutralization Potency: 2.89 µg/mL
[35]
  Virus Neutralization Potency: 0.03 µg/mL
[36]
  Virus Neutralization Potency: 0.03 µg/mL
[37]
  Virus Neutralization Potency: 0.08 µg/mL
[38]
  Virus Neutralization Potency: 0.07 µg/mL
